Results of unrelated studies side by side (data: NIAID ChemDB).

Common to all: growth or infection tests; organism: Candida albicans

a–b is a range or a potency band. An empty or dashed field is not shown. ECn: concentration that inhibits the pathogen or its effect by n%. Neighbouring rows are from separate reports. A number after MIC or MFC names an inhibition level or a share of isolates.

compound | read by | measure | strain | changes | result
C1CCC(C[C@@H]2CN=C3N2C[C@@H](C2CCCCC2)N3CCC23CC4CC(CC(C4)C2)C3)CC1 | - | EC50 | ATCC 10231 | - | 9.1 µg/mL
O=C(/C=C/c1ccco1)c1ccc(Cl)cc1Cl | - | MIC | ATCC 10231 | - | >50 µg/mL
C1CCC([C@@H]2CN3C(=NC[C@H]3C3CCCCC3)N2CCC23CC4CC(CC(C4)C2)C3)CC1 | - | MIC | ATCC 10231 | - | 32–64 µg/mL
Nc1nc(=O)n([C@H]2CS[C@@H](CO)O2)cc1F | - | MIC90 | 4054 strains (fluconazole-susceptible) | - | 1 µg/mL
CN1CCC2=C(CCCC2CCc2ccc(Cl)cc2Cl)C1 | - | MIC | 1208E | - | 62 µg/mL
C1CCC(C[C@@H]2CN=C3N2C[C@H](C2CCCCC2)N3CCC23CC4CC(CC(C4)C2)C3)CC1 | - | EC50 | ATCC 10231 | - | 8.3 µg/mL
C[C@H](CCC(=O)NCCNCCNC(=O)CC[C@@H](C)[C@H]1CCC2C3C(C[C@H](C)[C@@]21O)[C@@]1(C)CC[C@@H](O)CC1C[C@H]3O)[C@H]1CCC2C3C(C[C@H](C)[C@@]21O)[C@@]1(C)CC[C@@H](O)CC1C[C@H]3O | - | MIC | Isolate 3 | - | 0.011 µM
C=C(Cl)/C=C/[C@H](O)CC(=C)C[C@H]1OC2[C@@H](O)[C@]3(O)C[C@@H](O)[C@H](C)[C@H](CCC/C=C\[C@@H]4C[C@@H](O)C[C@]5(C[C@H](OC)CC(CC(=O)[C@@H](C)[C@H](OC(C)=O)[C@@H](C)C(=C)C[C@@H]6C[C@@](C)(O)C[C@]7(C[C@H](OC(C)=O)CC(CC(=O)O[C@@H]([C@@H]1O)[C@H]2C)O7)O6)O5)O4)O3 | - | MFC | ATCC64124 | - | 6.25 µg/mL
CCC(C)n1ncn(-c2ccc(N3CCN(c4ccc(OC[C@H]5CO[C@](Cn6cncn6)(c6ccc(Cl)cc6Cl)O5)cc4)CC3)cc2)c1=O | - | MIC | Isogenic isolate 12 (25X) | - | 0.03 µg/mL
Cc1c(N2CCC(C(C)N)C2)c(F)cn2c(=O)c(C(=O)O)cc(C3CC3)c12.Cl | - | MIC | CCH442 | - | 0.01 µg/mL
COc1ccc(C(=O)/C=C/c2ccc(N(C)C)cc2)cc1OC | - | MIC | ATCC 10231 | - | >50 µg/mL
Cc1c(N2CCCC(N)C2)c(F)cn2c(=O)c(C(=O)O)cc(C3CC3)c12 | - | MIC | CCH442 | - | >100 µg/mL
CN1CCC2=C(CCCC2CCc2ccccc2Cl)C1 | - | MIC | 2005E | - | 62 µg/mL
Cc1c(N2C[C@@H]3CCC[C@H](N)[C@H]3C2)c(F)cn2c(=O)c(C(=O)O)cc(C3CC3)c12.Cl | - | MIC | CCH442 | - | >100 µg/mL
Nc1[nH]c(=O)ncc1F | - | MIC | ATCC 90029 | - | >64 µg/mL
COc1cc(C[C@H](C)[C@H](C)Cc2ccc(O)c(O)c2)ccc1O | broth dilution | MIC50 | CCC 128-2000 | - | 15.6 µg/mL
CCN1C2=NC[C@H](Cc3ccccc3)N2C[C@@H]1C1CCCCC1 | - | MIC | ATCC 10231 | - | >64 µg/mL
CN1CC[C@H]2[C@@H](CC[C@@H]3c4cc(F)ccc4CC[C@H]23)C1 | - | MIC | C316 | - | 62 µg/mL
CCN1C2=NC[C@H](Cc3ccccc3)N2C[C@@H]1CC1CCCCC1 | - | EC50 | ATCC 10231 | - | >64 µg/mL
CCC(C)n1ncn(-c2ccc(N3CCN(c4ccc(OC[C@H]5CO[C@](Cn6cncn6)(c6ccc(Cl)cc6Cl)O5)cc4)CC3)cc2)c1=O | - | MIC90 | 85 strains (fluconazole-resistant) | - | >8 µg/mL
C[N+]1(C)CCc2cc3c(cc2C1)OCO3.[Br-] | broth dilution | MIC80 | Clinical isolate | Fluconazole-resistant | >64 µg/mL
N#CC(C#N)C(CC(=O)c1ccccc1)c1cc2ccccc2nc1Cl | - | MIC | ATCC 10231 | - | >50 µg/mL
CN(C/C=C/C#CC(C)(C)C)Cc1cccc2ccccc12 | - | MIC90 | CI_4 | - | 8 µg/mL
Cc1c(N2C[C@@H](N)[C@@H](F)C2)c(F)cn2c(=O)c(C(=O)O)cc(C3CC3)c12 | - | MIC | CCH442 | - | >100 µg/mL
C[C@@H]1[C@H](O)[C@@H](C)/C=C/C=C/CC/C=C/C=C/C=C/C=C/C(O[C@H]2O[C@H](C)[C@@H](O)[C@H](N)[C@@H]2O)CC2O[C@](O)(CC(O)C(O)CCC(O)CC(O)CC(O)CC(=O)O[C@H]1C)CC(O)C2C(=O)O | - | MIC | MTCC 3958 | - | 150 µg/mL
CC(C)(C)C1CCC(CN2C3=NC[C@H](CC4CCCCC4)N3C[C@H]2C2CCCCC2)CC1 | - | MIC | ATCC 10231 | - | 10–16 µg/mL
Cc1c(N2CCC(C(C)(C)N)C2)c(F)cn2c(=O)c(C(=O)O)cc(C3CC3)c12 | - | MIC | CCH442 | - | >100 µg/mL
Cc1c(N2CC[C@@H]([C@@H](C)N)C2)c(F)cn2c(=O)c(C(=O)O)cc(C3CC3)c12 | - | MIC | CCH442 | - | >100 µg/mL
CN1CCC2=C(CCCC2CCc2ccc(Br)cc2)C1 | - | MIC | 2402E | - | 4 µg/mL
CC(C)(C)C1CCC(CN2C3=NC[C@@H](CC4CCCCC4)N3C[C@@H]2C2CCCCC2)CC1 | - | EC50 | ATCC 10231 | - | 9.7 µg/mL
CC1=C(N2CC[C@@H](CNCCF)C2)C(F)=CN2C(=O)C(C(=O)O)=CC(C3CC3)C12 | - | MIC | CCH442 | - | >100 µg/mL
CC(C)(C)C1CCC(CN2C3=NC[C@@H](C4CCCCC4)N3C[C@H]2C2CCCCC2)CC1 | - | MIC | ATCC 10231 | - | >64 µg/mL
COC[C@@H](N)[C@@H]1CCN(c2c(F)cn3c(=O)c(C(=O)O)cc(C4CC4)c3c2C)C1.Cl | - | MIC | CCH442 | - | 100 µg/mL
CC(C)(C)c1ccc(C(=O)NCCc2ccc3c(c2)OCO3)cc1 | broth dilution | MIC80 | Clinical isolate | Fluconazole-resistant | >64 µg/mL
Cc1c(N2CCC(CC3CC3N)C2)c(F)cn2c(=O)c(C(=O)O)cc(C3CC3)c12 | - | MIC | CCH442 | - | >100 µg/mL
CNC1CN(c2c(F)cn3c(=O)c(C(=O)O)cc(C4CC4)c3c2C)CC1O.Cl | - | MIC | CCH442 | - | >100 µg/mL
CC1=C(N2CC[C@@H](ON)C2)C(F)=CN2C(=O)C(C(=O)O)=CC(C3CC3)C12 | - | MIC | CCH442 | - | >100 µg/mL
Cc1c(N2C[C@@H](N)[C@H](C(F)(F)F)C2)c(F)cn2c(=O)c(C(=O)O)cc(C3CC3)c12.Cl | - | MIC | CCH442 | - | >100 µg/mL
COc1ccc2c(c1OC)C[N+]1(Cc3ccc([N+](=O)[O-])cc3)CCc3cc4c(cc3C1C2)OCO4.[Br-] | broth dilution | MIC80 | Clinical isolate | Fluconazole-resistant | >64 µg/mL
C=CCc1ccc(O)c(-c2ccc(O)c(CC=C)c2)c1 | broth dilution | MIC | TW 07239 | - | 64 µg/mL
Cc1c(N2CCC(N(C)C)CC2)c(F)cn2c(=O)c(C(=O)O)cc(C3CC3)c12 | - | MIC | CCH442 | - | >100 µg/mL
Cl.NC1CCN(c2c(F)cn3c(=O)c(C(=O)O)cc(C4CC4)c3c2F)C1 | - | MIC | CCH442 | - | >100 µg/mL
C[C@@H]1[C@H](O)[C@@H](C)/C=C/C=C/CC/C=C/C=C/C=C/C=C/C(O[C@H]2O[C@H](C)[C@@H](O)[C@H](N)[C@@H]2O)CC2O[C@](O)(CC(O)C(O)CCC(O)CC(O)CC(O)CC(=O)O[C@H]1C)CC(O)C2C(=O)O | broth dilution | MIC100 | ICB 12 | - | 64 µg/mL
C1CCC(C[C@@H]2CN3C(=NC[C@@H]3CC3CCCCC3)N2CCC23CC4CC(CC(C4)C2)C3)CC1 | - | MIC | ATCC 10231 | - | 4–8 µg/mL
CO[C@@H]1CN(c2c(F)cn3c(=O)c(C(=O)O)cc(C4CC4)c3c2C)C[C@H]1N | - | MIC | CCH442 | - | >100 µg/mL
O=C(Cc1cccs1)NCCc1ccc2c(c1)OCO2 | broth dilution | MIC80 | Clinical isolate | Fluconazole-resistant | >64 µg/mL
COc1cc2cc(/C=C/C(=O)c3ccc(Cl)cc3)c(Cl)nc2cc1OC | - | MIC | ATCC 10231 | - | >50 µg/mL

A second listing of 6 rows from above:

| compound | read by | measure | strain | changes | result |
|---|---|---|---|---|---|
| CN1CCC2=C(CCCC2CCc2ccccc2Cl)C1 | - | MIC | 2005E | - | 62 µg/mL |
| CC1=C(N2CC[C@@H](CNCCF)C2)C(F)=CN2C(=O)C(C(=O)O)=CC(C3CC3)C12 | - | MIC | CCH442 | - | >100 µg/mL |
| Cc1c(N2CCCC(N)C2)c(F)cn2c(=O)c(C(=O)O)cc(C3CC3)c12 | - | MIC | CCH442 | - | >100 µg/mL |
| C[C@@H]1[C@H](O)[C@@H](C)/C=C/C=C/CC/C=C/C=C/C=C/C=C/C(O[C@H]2O[C@H](C)[C@@H](O)[C@H](N)[C@@H]2O)CC2O[C@](O)(CC(O)C(O)CCC(O)CC(O)CC(O)CC(=O)O[C@H]1C)CC(O)C2C(=O)O | broth dilution | MIC100 | ICB 12 | - | 64 µg/mL |
| C=C(Cl)/C=C/[C@H](O)CC(=C)C[C@H]1OC2[C@@H](O)[C@]3(O)C[C@@H](O)[C@H](C)[C@H](CCC/C=C\[C@@H]4C[C@@H](O)C[C@]5(C[C@H](OC)CC(CC(=O)[C@@H](C)[C@H](OC(C)=O)[C@@H](C)C(=C)C[C@@H]6C[C@@](C)(O)C[C@]7(C[C@H](OC(C)=O)CC(CC(=O)O[C@@H]([C@@H]1O)[C@H]2C)O7)O6)O5)O4)O3 | - | MFC | ATCC64124 | - | 6.25 µg/mL |
| C1CCC(C[C@@H]2CN=C3N2C[C@H](C2CCCCC2)N3CCC23CC4CC(CC(C4)C2)C3)CC1 | - | EC50 | ATCC 10231 | - | 8.3 µg/mL |